Experimental findings from paper PMC11385703 (Structure(London, England:1993), 2024) are described below.

In general, Kd refers to the concentration at which binding is half-saturated. One may read the koff as the rate constant with which the complex falls apart.

The target of one assay is biotinylated myotoxin II (Bothrops asper, UniProt P24605, biotin (EZ-Link NHS-PEG4-Biotin, 1:1.25 toxin:reagent molar ratio)). Nature of the assay: BLI. The settings on record: both partners purified.
The target in assay [1] is biotinylated α-cobratoxin (Naja kaouthia, UniProt P01391, biotin (EZ-Link NHS-PEG4-Biotin, 1:1.25 toxin:reagent molar ratio)).

B1: IgG: TPL0039_05_A03-YTE (antibody, V domains shown)
VH: QVQLVESGGGLAKPGRSLRLSCAVSGFTFSSYGMHWVRQAPGKGLEWVAVISYDGSNKYYADSVKGRFTISRDNSKNTLYLQMNSLRAEDTAVYYCASTLQQLDAFDIWGQGTMVTVSS
VL: NFMLTQPHSVSESPGKTITISCTRSSGSIASNYVQWYQQRPGSVPTPVIYEDDRRPSGVPDRFSGSIDSSSNSASLTISGLKTEDEADYYCQSYDSSSVVFGGGTKITVL
notes: copies: 2 + 2
In the case of B1, in the assay with biotinylated myotoxin II, the Kd was < 1 pM and the koff is < 1e-07 s⁻¹.

B2: IgG: 2554_01_D11-YTE (antibody, V domains shown)
VH: QVQLVQSGAEVKKPGSSVKVSCKASGGTFSSYAISWVRQAPGQGLEWMGGIIPIFGTANYAQKFQGRVTITADESTSTAYMELRSLRSDDTAVYYCARDNLGYCSGGSCYSDYYYYYMDVWGQGTLVTVSS
VL: NFMLTQPRSVSESPGKTVTISCTRSSGSIGSDYVHWYQQRPGSSPTTVIYEDNQRPSGVPDRFSGSIDSSSNSASLTISGLKTEDEADYYCQSYDRSNHEVVFGGGTKLTVL
Take B2: the binding result in assay [1] was “binds”.

B3: IgG: 2554_01_D11-WT (antibody, V domains shown)
VH: B2 VH
VL: B2 VL
On to B3, for which the binding result in assay [1] is “binds”.

B4: IgG: 2555_01_A01-YTE (antibody, V domains shown)
VH: B2 VH
VL: SYELTQPPSVSVAPGRTATITCEGDNIGQQIVHWYQQKPGQAPVAVISSDSDRPSGIPERFSGSNSGNTATLTISRVEAGDEADYYCQVWDSGSDHVVFGGGTKVTVL
notes: also called IgG1 A01; source: CHO cells, transiently expressed, purified; copies: 2 + 2
For the molecule B4, the binding result in assay [1] was “binds”.
